Common to all, as to assay: cell-based or functional assay
In experiment [1] the target is human Nav1.4 voltage-gated sodium channel (human) (UniProt P35499).
Experiment [2] has as its target human Nav1.7 voltage-gated sodium channel (human) (UniProt Q15858).
In experiment [3] the target is human voltage-gated sodium channel Nav1.7 (human) (UniProt Q15858).
Experiment [4] has as its target human voltage-gated sodium channel Nav1.4 (human) (UniProt P35499).
For experiment [5], the target named is human Nav1.6 voltage-gated sodium channel (human) (UniProt Q9UQD0).
The target of experiment [6] is human voltage-gated sodium channel Nav1.5 (human) (UniProt Q14524).
Experiment [7] has as its target human voltage-gated sodium channel Nav1.3 (human) (UniProt Q9NY46).

As for “Pra-[Nle6; Glu28]JzTx-V(1-29) (peptide; modification not given)”, in experiment [1], the Nav1.4/Nav1.7 is 253.

For the substance “Pra-[Nle6, 23; Glu28]JzTx-V(1-29) (peptide; modification not given)”, in experiment [1], the Nav1.4/Nav1.7 came to 59 and the PX hNav1.4 Tonic IC50 was 102 nM. The substance further yielded a PX hNav1.7 Tonic IC50 in experiment [2] of 1.72 nM.

In experiment [1], “Pra-[Glu1, 11, 14, 28; Nle6]JzTx-V(1-29) (peptide)” yielded a Nav1.4/Nav1.7 of 189 and a PX hNav1.4 Tonic IC50 of 1920 nM. The substance further yielded a PX hNav1.7 Tonic IC50 in experiment [2] of 10.2 nM.

“[Glu7]JzTx-V(1-29) (peptide; modification not given)”: the IC50 (IonWorks Quattro) in experiment [3] is 560 nM; in experiment [4], 2600 nM; in experiment [6] it was more than 5000 nM; in experiment [7], 2800 nM. This substance registered a PX hNav1.6 Tonic IC50 in experiment [5] of more than 10000 nM.

In turn, “Homodimeric Conjugate No. 7 (peptide; modification not given)” showed a PX hNav1.4 Tonic IC50 in experiment [1] of 200 nM. Further, the PX hNav1.7 Tonic IC50 in experiment [2] worked out at 2.12 nM.

For the substance “Pra-[Nle6; Glu28]JzTx-V(1-29)-Gly-Free Acid (peptide; modification not given)”, in experiment [1], the Nav1.4/Nav1.7 turned out to be 211 and the PX hNav1.4 Tonic IC50 was determined as 1760 nM. Also, the PX hNav1.7 Tonic IC50 in experiment [2] came out at 8.34 nM.

In the case of “Pra-[Phe6; Glu28]JzTx-V(1-29) (peptide; modification not given)”, in experiment [1], the Nav1.4/Nav1.7 was 45 and the PX hNav1.4 Tonic IC50 came to 61.6 nM. In experiment [2], this substance returned a PX hNav1.7 Tonic IC50 of 1.36 nM.

In experiment [5], “Glu-[Nle6;Glu28]JzTx-V(1-29) (peptide; modification not given)” registered a PX hNav1.6 Tonic IC50 of 522 nM. The substance further returned a PX hNav1.7 Tonic IC50 in experiment [2] of 0.765 nM.

In experiment [1], “Pra-[Nle6; Glu28; Phe29]JzTx-V(1-29) (peptide; modification not given)” showed a Nav1.4/Nav1.7 of 785 and a PX hNav1.4 Tonic IC50 of 304 nM. The same substance had a PX hNav1.7 Tonic IC50 in experiment [2] of 0.388 nM.

In experiment [1], “Pra-[Nle6; Leu28]JzTx-V(1-29) (peptide; modification not given)” yielded a Nav1.4/Nav1.7 of 9 and a PX hNav1.4 Tonic IC50 of 25.9 nM. For the same substance, the PX hNav1.7 Tonic IC50 in experiment [2] was 2.91 nM.

For the substance “[Glu29]JzTx-V(1-29) (peptide; modification not given)”, the IC50 (IonWorks Quattro) in experiment [3] was 280 nM; in experiment [4], more than 5000 nM; in experiment [6], more than 5000 nM; in experiment [7], 5000 nM. For the same substance, the PX hNav1.6 Tonic IC50 in experiment [5] was more than 10000 nM. The substance further registered a PX hNav1.7 Tonic IC50 in experiment [2] of 261 nM.

“Pra-[Nle6; 2-Nal24; Glu28]JzTx-V(1-29) (peptide; modification not given)” yielded a PX hNav1.7 Tonic IC50 in experiment [2] of 182 nM.

In the case of “[Glu11]JzTx-V(1-29) (peptide; modification not given)”, the IC50 (IonWorks Quattro) in experiment [3] is 39 nM; in experiment [4] it was 380 nM; in experiment [6] it was more than 5000 nM; in experiment [7] it was 190 nM. Further, in experiment [5], the PX hNav1.6 Tonic IC50 was 200 nM.

In experiment [1], “Atz(NPEG10)-[Nle6; Glu28]JzTx-V(1-29) (peptide; modification not given)” registered a PX hNav1.4 Tonic IC50 of 371 nM. Besides, in experiment [2], the PX hNav1.7 Tonic IC50 came out at 3.08 nM.

“Pra-[1-Nal5; Nle6; Glu28]JzTx-V(1-29) (peptide; modification not given)”: the PX hNav1.7 Tonic IC50 in experiment [2] amounted to 70.9 nM.

In turn, “Pra-[Nle6; 2-Nal7; Glu28]JzTx-V(1-29) (peptide; modification not given)” showed a PX hNav1.7 Tonic IC50 in experiment [2] of 470 nM.

As to “[Glu14]JzTx-V(1-29) (peptide; modification not given)”, the IC50 (IonWorks Quattro) in experiment [3] was 20 nM; in experiment [4], 230 nM; in experiment [6], more than 5000 nM; in experiment [7] it was 110 nM. The PX hNav1.6 Tonic IC50 in experiment [5] is 146 nM.

Turning to “[Glu23]JzTx-V(1-29) (peptide; modification not given)”, the IC50 (IonWorks Quattro) in experiment [3] is 4000 nM; in experiment [4], more than 5000 nM; in experiment [6], more than 5000 nM; in experiment [7], 2000 nM. The same substance showed a PX hNav1.6 Tonic IC50 in experiment [5] of 9550 nM.

“Pra-[Nle6, 28]JzTx-V(1-29) (peptide; modification not given)” showed a PX hNav1.7 Tonic IC50 in experiment [2] of 0.339 nM.

Consider “Pra-[hPhe5; Nle6; Glu28]JzTx-V(1-29) (peptide; modification not given)”, for which, in experiment [1], the Nav1.4/Nav1.7 was 431 and the PX hNav1.4 Tonic IC50 was determined as 258 nM. Further, the PX hNav1.7 Tonic IC50 in experiment [2] amounted to 0.599 nM.

In experiment [2], “Homodimeric Peptide No. 7 (peptide; modification not given)” returned a Nav1.7 PX IC50 of 2.12 nM.

“Pra-[Nle6;Asp28]JzTx-V(1-29) (peptide; modification not given)” displayed a PX hNav1.6 Tonic IC50 in experiment [5] of 1620 nM. This substance displayed a PX hNav1.7 Tonic IC50 in experiment [2] of 5.98 nM.

Regarding “Pra-[Nle6; 5-BrW24]JzTx-V(1-29) (peptide; modification not given)”, in experiment [1], the Nav1.4/Nav1.7 was determined as 7 and the PX hNav1.4 Tonic IC50 is 11 nM. The same substance came in with a PX hNav1.7 Tonic IC50 in experiment [2] of 1.66 nM.

On to “Pra-[Nle6; Phe24; Glu28]JzTx-V(1-29) (peptide; modification not given)”, for which, in experiment [2], the PX hNav1.7 Tonic IC50 amounted to 15.3 nM.

In experiment [1], “Pra-[Nle6; Asp28]JzTx-V(1-29) (peptide; modification not given)” yielded a Nav1.4/Nav1.7 of 13 and a PX hNav1.4 Tonic IC50 of 78.4 nM. The same substance registered a PX hNav1.7 Tonic IC50 in experiment [2] of 5.98 nM.

With “Glu-Pra-[Nle6;Glu28]JzTx-V(1-29) (peptide; modification not given)”, the PX hNav1.6 Tonic IC50 in experiment [5] amounted to 174 nM. Further, in experiment [2], the PX hNav1.7 Tonic IC50 turned out to be 0.738 nM.

In experiment [2], “Pra-[Nle6; hPhe24; Glu28]JzTx-V(1-29) (peptide; modification not given)” came in with a PX hNav1.7 Tonic IC50 of more than 1000 nM.

In the case of “Pra-[Nle6;Glu8,28]JzTx-V(1-29) (peptide; modification not given)”, in experiment [5], the PX hNav1.6 Tonic IC50 turned out to be 6460 nM. The PX hNav1.7 Tonic IC50 in experiment [2] was 16.4 nM.

In experiment [5], “Pra-[hPhe5;Nle6;Glu28]JzTx-V(1-29) (peptide; modification not given)” had a PX hNav1.6 Tonic IC50 of 998 nM. In experiment [2], this substance showed a PX hNav1.7 Tonic IC50 of 0.599 nM.

Regarding “Pra-[Nle6; Glu28; Trp29]JzTx-V(1-29) (peptide; modification not given)”, in experiment [1], the Nav1.4/Nav1.7 was 47 and the PX hNav1.4 Tonic IC50 worked out at 36.7 nM. In experiment [2], this substance gave a PX hNav1.7 Tonic IC50 of 0.782 nM.

In experiment [1], “Pra-[SeC2, 16; Nle6; Glu28]JzTx-V(1-29) (peptide; modification not given)” yielded a Nav1.4/Nav1.7 of 61 and a PX hNav1.4 Tonic IC50 of 58.1 nM. The PX hNav1.7 Tonic IC50 in experiment [2] was determined as 0.949 nM.

In experiment [1], “Pra-[Nle6; Glu28; Cha29]JzTx-V(1-29) (peptide; modification not given)” gave a Nav1.4/Nav1.7 of 62 and a PX hNav1.4 Tonic IC50 of 36.6 nM. Further, the PX hNav1.7 Tonic IC50 in experiment [2] is 0.593 nM.

“Pra-[Nle6; 1-Nal24; Glu28]JzTx-V(1-29) (peptide; modification not given)” gave a PX hNav1.7 Tonic IC50 in experiment [2] of 32 nM.

In experiment [1], “Glu-Pra-[Nle6; Glu28]JzTx-V(1-29) (peptide; modification not given)” returned a Nav1.4/Nav1.7 of 152 and a PX hNav1.4 Tonic IC50 of 112 nM. Further, the PX hNav1.7 Tonic IC50 in experiment [2] turned out to be 0.738 nM.

In experiment [1], “Pra-[Nle6; Glu8, 28]JzTx-V(1-29) (peptide; modification not given)” showed a Nav1.4/Nav1.7 of 97 and a PX hNav1.4 Tonic IC50 of 1580 nM. This substance had a PX hNav1.7 Tonic IC50 in experiment [2] of 16.4 nM.

Consider “[Glu4]JzTx-V(1-29) (peptide; modification not given)”, for which the PX hNav1.7 Tonic IC50 in experiment [3] and in experiment [2] was 847 nM in each case. In experiment [5], this substance gave a PX hNav1.6 Tonic IC50 of more than 10000 nM.

In the case of “Pra-[Nle6; Glu28]JzTx-V(1-29)-Glu (peptide; modification not given)”, the PX hNav1.7 Tonic IC50 in experiment [2] is 32.4 nM.

In experiment [1], “Pra-[Nle6; Phe7; Glu28]JzTx-V(1-29) (peptide; modification not given)” came in with a Nav1.4/Nav1.7 of 80 and a PX hNav1.4 Tonic IC50 of 1010 nM. Further, the PX hNav1.7 Tonic IC50 in experiment [2] is 12.6 nM.

As to “Pra-[5-BrW5; Nle6; Glu28]JzTx-V(1-29) (peptide; modification not given)”, the PX hNav1.7 Tonic IC50 in experiment [2] came out at 53.5 nM.

In experiment [2], “Pra-[2-Nal5; Nle6; Glu28]JzTx-V(1-29) (peptide; modification not given)” displayed a PX hNav1.7 Tonic IC50 of 21.6 nM.

“Homodimeric Peptide No. 6 (peptide; modification not given)”: the Nav1.7 PX IC50 in experiment [2] amounted to 0.414 nM.

“Pra-[4-BrhE5; Nle6; Glu28]JzTx-V(1-29) (peptide; modification not given)”: in experiment [1], the Nav1.4/Nav1.7 turned out to be 207 and the PX hNav1.4 Tonic IC50 came to 47.9 nM. The substance also gave a PX hNav1.7 Tonic IC50 in experiment [2] of 0.23 nM.

In experiment [1], “Pra-[Nle6; Glu12]JzTx-V(1-29) (peptide; modification not given)” came in with a Nav1.4/Nav1.7 of 31 and a PX hNav1.4 Tonic IC50 of 37.2 nM. The substance further returned a PX hNav1.7 Tonic IC50 in experiment [2] of 1.19 nM.

As for “Pra-[Nle6; 5-BrW24; Glu28]JzTx-V(1-29) (peptide; modification not given)”, in experiment [1], the Nav1.4/Nav1.7 amounted to 1040 and the PX hNav1.4 Tonic IC50 amounted to 40.4 nM. The PX hNav1.7 Tonic IC50 in experiment [2] came out at 0.039 nM.

For the substance “Pra-[Nle6; Pro28]JzTx-V(1-29) (peptide; modification not given)”, in experiment [1], the Nav1.4/Nav1.7 was found to be 105 and the PX hNav1.4 Tonic IC50 is 206 nM. In experiment [2], this substance yielded a PX hNav1.7 Tonic IC50 of 1.97 nM.

The substance “Pra-[Nle6; His28]JzTx-V(1-29) (peptide; modification not given)” yielded a PX hNav1.7 Tonic IC50 in experiment [2] of 0.371 nM.

In experiment [2], “Pra-[Nle6; 1-Nal7; Glu28]JzTx-V(1-29) (peptide; modification not given)” returned a PX hNav1.7 Tonic IC50 of 825 nM.

Values taken from patent US20160024159A1, “Potent and selective inhibitors of Nav1.7” (published 2016).
